Compound potency records, mixed from different reports. Data source: NIAID ChemDB in PubChem.

All rows: tests in culture; species: Human cytomegalovirus; measure: EC50

ECn is the concentration giving n% inhibition of infection, replication or growth.

O=C(NCc1ccc(Cl)cc1)c1c[nH]c2c(F)cccc2c1=O ; strain: 759rD100 ; read by: plaque count ; result: 2.6 µM
Cc1nc(N2CCC[C@H](C)C2)nc(-n2ccnc2)c1[N+](=O)[O-] ; result: 0.08 µM
COc1cccc(N2CCN(C3=Nc4c(F)cccc4[C@H](CC(=O)O)N3c3cc(C(F)(F)F)ccc3OC)CC2)c1 ; strain: RV-HG rGCV ; read by: plaque count ; result: 0.0039 µM
Cc1cc(C)cc(Cn2c(=S)ccn(Cc3ccco3)c2=O)c1 ; strain: AD169 ; result: 13 µM
Nc1nc2c(ncn2COC(CO)CO)c(=O)[nH]1 ; strain: 48041 (DHPG-R) ; read by: plaque count ; result: 50.4 µM
CN(C)c1cccc2c(S(=O)(=O)Nc3ccc(NC(=O)C(C)(C)CO)cc3)cccc12 ; strain: ULM B3 (ganciclovir-resistant) ; read by: plaque count ; result: 1.48 µM
O=C(NCc1ccc(Cl)cc1)c1c[nH]c2ccc(C#CCO)cc2c1=O ; strain: Clinical isolates ; read by: plaque count ; result: 1.3 µM
N#CCn1c(Cl)cc(=O)[nH]c1=O ; strain: AD169 ; result: >270 µM
Nc1nc2c(ncn2C=C2CC2CO)c(=O)[nH]1 ; strain: VR6189 (ganciclovir-susceptible) ; read by: plaque count ; result: 2 µM
Cc1ccc(Cn2c(=O)ccn(CC#N)c2=O)cc1 ; strain: AD169 ; result: 78 µM
CN(C)c1cccc2c(S(=O)(=O)Nc3ccc(NC(=O)C(C)(C)CO)cc3)cccc12 ; strain: Isolate B.K ; read by: plaque count ; result: 1.97 µM
O=C(NCc1ccc(Cl)cc1)c1c[nH]c2ccc(CCCO)cc2c1=O ; strain: DAVIS ; read by: plaque count ; result: 1 µM
Cc1nc(N[C@@H]2c3ccccc3C[C@@H]2O)nc(-n2ccnc2)c1[N+](=O)[O-] ; result: 0.175 µM
CNc1cccc2c(S(=O)(=O)Nc3ccc(NC(=O)C(C)(C)CF)cc3)cccc12 ; strain: WILD TYPE ; read by: plaque count ; result: 0.14 µM
Cc1nc(NC2CCc3c(F)cccc32)nc(-n2ccnc2C)c1[N+](=O)[O-] ; result: 0.05 µM
OC[C@H]1O[C@@H](n2c(Br)nc3cc(Cl)c(Cl)cc32)[C@H](O)[C@@H]1O ; strain: D10 (D341E) ; read by: plaque count ; result: 13 µM
CCc1nccn1-c1nc(NC2CCc3cc(F)c(F)cc32)nc(C)c1[N+](=O)[O-] ; result: 0.18 µM
Cc1cc(C)cc(Cn2c(=O)ccn(Cc3cccs3)c2=O)c1 ; strain: AD169 ; result: 15 µM

A second listing of 2 rows from above:

SMILES | strain | read by | result
O=C(NCc1ccc(Cl)cc1)c1c[nH]c2ccc(CCCO)cc2c1=O | DAVIS | plaque count | 1 µM
Cc1nc(N[C@@H]2c3ccccc3C[C@@H]2O)nc(-n2ccnc2)c1[N+](=O)[O-] |  |  | 0.175 µM

Blank or dashed fields: not listed here. Lines come from different laboratories, so protocols vary.